# Values from PubChem BioAssay AID1259414 (Drosophila RNAi Screening Center, 2018)
# Aim: 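Fly genes that alter Wolbachia amount inside host cells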 (primary screen)
# System: Drosophila JW18 cells infected with Wolbachia
# Reagents: long dsRNA against Drosophila genes, 0.25 µg dsRNA per well of a 384-well plate
# Time to read-out: 5 days
# Treatment: cells persistently infected with Wolbachia before knock-down; no added drug
# Read-out: 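Imaged fluorescence in situ signal for Wolbachia 23S rRNA per DAPI-counted host cell, given as a robust z-score within each plate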
# Direction: Wolbachia per cell robust z: higher = more Wolbachia per host cell than the plate typical
# Rule for the call: 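Hit when robust z is 1.5 or more, or -1.5 or less, in at least two of three replicates; excludes dsRNAs with several or no targets, genes not expressed in JW18 and well A1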
# The deposit covers about 24,000 reagents; shown is an unselected part of those with a known target gene and a result. Of all reagents, about 1,210 (5%) were called active. 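Inactive calls also include excluded dsRNAs with several or no targets, genes unexpressed in JW18, and well A1, regardless of score.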 Unmarked entries are inactive. Names joined by + are all predicted targets of the reagent.
predicted target,amplicon,"Wolbachia per cell robust z, rep 1","Wolbachia per cell robust z, rep 2","Wolbachia per cell robust z, rep 3"
asRNA:CR17025,DRSC28651,1.05,0.955,0.305
Acbp2,DRSC11141,-1.14,-1.13,-0.643
Acbp2,DRSC24352,-0.392,-0.27,0.391
tctn + B9d2,DRSC03160,0.154,-1.05,-0.768
Cpr47Ea,DRSC07333,0.124,0.473,0.677
Gar1,DRSC04441,-4.77,-0.28,-0.165
Gar1,DRSC25331,0.592,0.642,0.0224
AANATL7,DRSC18616,-0.0818,0.822,-0.379
SkpA,DRSC18833,1.72 (active),3.5,1.67
SkpA,DRSC25163,0.668 (active),3.7,4.11
CG5913,DRSC15916,0.912,0.39,0.155
Mur11Da,DRSC18960,-0.207,-0.321,0.287
CG11737,DRSC14364,0.782,0.97,0.517
jv,DRSC08831,0.914,0.737,-3.24
jv,DRSC25736,-0.668,-0.453,0.696
lncRNA:iab4,DRSC22331,-1.15,0.87,0.319
lncRNA:iab4,DRSC26703,0.651,1.22,0.71
ssp,DRSC10252,-0.0636,-0.14,0.876
sgg,DRSC17228,-2.74,0.973,0.988
sgg,DRSC17722,1.29,-0.0917,-9.11
sgg,DRSC18832,0.471,1.02,0.589
sgg,DRSC23946,-4.46,1.13,2.22
sgg,DRSC40670,0.625,1.39,1.61
CG5321,DRSC19940,0.815,0.0477,-1.45
CG5321,DRSC22802,-2.13,0.332,-0.501
CG5321,DRSC27348,0.188,-0.275,-6.45
Ras64B,DRSC08689,0.0977,-1.66,-0.963
Ras64B,DRSC26766,0.226,-0.948,-0.437

Reformatted: entries from further up
{"predicted target": "ssp", "amplicon": "DRSC10252", "Wolbachia per cell robust z, rep 1": -0.0636, "Wolbachia per cell robust z, rep 2": -0.14, "Wolbachia per cell robust z, rep 3": 0.876}
{"predicted target": "sgg", "amplicon": "DRSC17228", "Wolbachia per cell robust z, rep 1": -2.74, "Wolbachia per cell robust z, rep 2": 0.973, "Wolbachia per cell robust z, rep 3": 0.988}
